Paper PMC10978252 (Journal of medicinal chemistry, 2024)

Target: HIV-Nef (Human immunodeficiency virus type 1, UniProt P03406)
Type: cell-based, HIV-1
Details: 24 h

Q: `CNC(=O)O[C@@H](CC(C)C)c1nc([C@H]2OC(=O)/C(C)=C/C/C(C)=C/[C@@H](O)[C@@H](C)\C=C(C)/C=C(C)\C=C\[C@@H](O)[C@H](C)[C@H](OC)/C(C)=C/C=C/[C@@H]2C)cs1` [compound 3, archazolid A, reference compound] was tested. Which “Nef inhibitory potency, in words (relative to parent or comparator)” value did it give?
A: sub nM potency
